Results deposited as PubChem BioAssay AID504761 (Drosophila RNAi Screening Center, 2011)
Screen: 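Fly genes whose silencing reduces dengue virus type 2 infection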 (primary screen). Cell system: D.Mel-2 cells from Drosophila. Reagents: long dsRNA against Drosophila genes. Treatment: infection with dengue virus type 2; dose and infection time not stated. Read-out: 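Per well on two replicate plates, imaging gave the percent of cells positive for viral envelope protein, ranked by infection, and a nuclear count of cells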. Direction: infection score: higher = more virus-infected cells; cell count: higher = more cells in the well. Hit rule: 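Very low infection ranking in both replicate wells (chance probability at most 0.065), then a retest showing infection dropped 1.5-fold or more at p below 0.05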. Meaning of the calls: active = confirmed: knock-down lowers infection; inactive = not picked or not confirmed.
The screen tested about 22,000 reagents; below is an unselected part of those that have a named target and a result. Of all reagents, 116 (0.52%) got an active call. 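Calls depend on retest data that are not deposited; infection was ranked per plate without normalising between plates; the unit of the infection score is not given.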 Raw values are not corrected between plates. Reagents against one gene are numbered here. Names joined by + are all predicted targets of the reagent. Not given: the amount of reagent, the time to read-out.

| gene | reagent | infection score, replicate 1 | infection score, replicate 2 | cell count, replicate 1 | cell count, replicate 2 | call |
| --- | --- | --- | --- | --- | --- | --- |
| 18w | 1 | – | – | 325 | 375 | inactive |
| 18w | 2 | 16.1 | 5.9 | 6255 | 6289 | inactive |
| Antp | 1 | 0.58 | 0.81 | 6533 | 6883 | active |
| Antp | 2 | 3.24 | 5.11 | 6330 | 6343 | inactive |
| CG2898 | 1 | 3 | 24.4 | 1767 | 6191 | inactive |
| su(w[a]) | 1 | 3.86 | 8.21 | 5914 | 6504 | inactive |
| su(w[a]) | 2 | 10.9 | 14.7 | 5208 | 4817 | inactive |
| sax | 1 | 2.63 | 32.5 | 646 | 5568 | inactive |
| sax | 2 | 19.2 | 2.05 | 5983 | 6331 | inactive |
| CG12204 | 1 | 8.6 | 1.7 | 6585 | 6601 | inactive |
| CG12204 | 2 | 6.27 | 3.16 | 6429 | 6295 | inactive |
| bma | 1 | 6.71 | 5.73 | 5979 | 6425 | inactive |
| bma | 2 | 1.36 | 2.93 | 6259 | 6786 | inactive |
| bma | 3 | 7.29 | 6.14 | 2730 | 3488 | inactive |
| lace | 1 | 26.9 | 11.5 | 5701 | 5685 | inactive |
| Jhbp3 | 1 | 4.26 | 10.7 | 6758 | 6810 | inactive |
| comm | 1 | 0.45 | 1.15 | 6061 | 6184 | inactive |
| comm | 2 | 1.71 | 2.47 | 5834 | 5795 | inactive |
| CG32054 | 1 | 4.28 | 3.93 | 5439 | 5831 | inactive |
| CG32054 | 2 | 5.54 | 4.36 | 6210 | 5920 | inactive |
| blo | 1 | 3.49 | 12.1 | 5929 | 6484 | inactive |
| blo | 2 | 7.67 | 4.64 | 6533 | 6490 | inactive |
| CG14882 | 1 | 12.8 | 6.73 | 6195 | 6627 | inactive |
| CG14882 | 2 | 2.75 | 15.8 | 908 | 5681 | inactive |
| CG3598 | 1 | 9.41 | 7.25 | 1616 | 6123 | inactive |
| CG3598 | 2 | 7.93 | 16.8 | 6100 | 6515 | inactive |
| RhoGEF3 | 1 | 4.27 | 2.77 | 5476 | 6024 | inactive |
| RhoGEF3 | 2 | 1.14 | 2.76 | 5882 | 5875 | inactive |
| Cyp6a20 | 1 | 12.1 | 5.8 | 6468 | 6618 | inactive |
| CG5569 | 1 | 6.11 | 15 | 6199 | 6612 | inactive |
| CG18508 | 1 | 0.66 | 3.54 | 6232 | 5825 | inactive |
| CG18508 | 2 | 3.6 | 5.28 | 6723 | 6774 | inactive |
| dyw | 1 | 1.5 | 2.5 | 466 | 6526 | inactive |
| dyw | 2 | – | 15.2 | 441 | 4700 | inactive |
| CG4707 | 1 | 4.65 | 20.1 | 6798 | 5813 | inactive |
| CG13337 | 1 | 4.8 | 20.3 | 6578 | 4625 | inactive |
| CG13337 | 2 | 2.64 | 7.47 | 720 | 1753 | inactive |
| Hexo2 | 1 | 36.8 | 15.7 | 5962 | 2152 | inactive |
| Tpc1 | 1 | 7.05 | 4.3 | 6142 | 6001 | inactive |
| Tpc1 | 2 | 2.93 | 3.25 | 6313 | 6305 | inactive |
| Tpc1 | 3 | – | 11.7 | 332 | 2703 | inactive |
| Sur-8 | 1 | 16.6 | 18.2 | 3083 | 5568 | inactive |
| pns | 1 | 3.36 | 2.99 | 5931 | 5717 | inactive |
| Mef2 | 1 | 11.2 | 5.34 | 5486 | 6158 | inactive |
| Mef2 | 2 | 1.16 | 4.49 | 6112 | 5541 | inactive |
| CG14907 + Mettl4 | 1 | 4.12 | 5.33 | 6328 | 6624 | inactive |
| CG14907 + Mettl4 | 2 | 3.73 | 3.22 | 6352 | 6766 | inactive |
| arg | 1 | 24.1 | 14.8 | 6406 | 6847 | inactive |
| arg | 2 | – | 16.2 | 331 | 2104 | inactive |
| CG30373 | 1 | 0.97 | 0.37 | 6073 | 5869 | inactive |
| CG30373 | 2 | 1.12 | – | 534 | 317 | inactive |
| CG31835 + CG42585 | 1 | 4.47 | 1.58 | 5546 | 5300 | inactive |
| udt | 1 | 0.69 | 3.21 | 5973 | 5889 | inactive |
| FANCI | 1 | 17.7 | 14.2 | 4451 | 3923 | inactive |
| CG13707 | 1 | 0.76 | 0.57 | 5887 | 6139 | active |
| Cpr65Ax2 + Cpr65Ax1 | 1 | 1.55 | 4.15 | 6014 | 5680 | inactive |
| Cpr65Ax2 + Cpr65Ax1 | 2 | 0.52 | 7.41 | 6360 | 5535 | inactive |
| PCNA2 | 1 | 7.44 | 9.6 | 1801 | 5981 | inactive |

Active calls (from the list above):
| gene | reagent | infection score, replicate 1 | infection score, replicate 2 | cell count, replicate 1 | cell count, replicate 2 | call |
| --- | --- | --- | --- | --- | --- | --- |
| Antp | 1 | 0.58 | 0.81 | 6533 | 6883 | active |
| CG13707 | 1 | 0.76 | 0.57 | 5887 | 6139 | active |
